Only a part is listed here, and it is no random draw. Activity calls are given as the source filed them. The call rests on the fitted dose curve; in most records, active means well fitted inhibition curve with a large enough effect; inconclusive means small, poorly fitted or top-dose-only effect; inactive means flat fitted curve, though single readings scatter.
Molecular target: pyruvate kinase (Trypanosoma brucei) (UniProt Q57TT1)
Experiment: qHTS of Trypanosoma Brucei Inhibitors; further: nearly all actives have a fitted effect of over 50% in size
Conditions: TbPYK enzyme, Kinase-Glo Plus ATP luminescence, 45 min; at 76.8 µM (top of the series) unless noted
On the % scale 0 is the no-effect control and ±100 the full control effect.

Structure (SMILES) | activity, negative = inhibition
CP(=S)(Nn1cnnc1)Oc1ccccc1 (stereo not drawn) | inactive: -5.36%
CP(=O)(Nc1ccccc1Br)Oc1ccccc1 (stereo not drawn) | inactive: 0.01%
COc1ccccc1OP(C)(=O)Nc1ccccc1 (stereo not drawn) | inactive: 0.629%
CP(=O)(Oc1ccccc1)OC(c1ccccc1)C(F)(F)F (stereo not drawn) | inactive: -0.911%
Cc1cccc(C)c1OP(C)(=O)Nc1ccc(SC(F)(F)F)cc1 (stereo not drawn) | inactive: -1.52%
CP(=O)(Nc1ccc(SC(F)(F)F)cc1)Oc1ccc(Cl)cc1 (stereo not drawn) | inactive: 2.14%
Cc1cc(C)cc(OP(C)(=O)Nc2ccc(SC(F)(F)F)cc2)c1 (stereo not drawn) | inactive: 5.38%
CP(=O)(NC(=O)Nc1ccccc1)Oc1ccccc1 (stereo not drawn) | inactive: 5.18%
CCc1ccc(OP(C)(=O)N2CCN(c3ccc([N+](=O)[O-])cc3)CC2)cc1 (stereo not drawn) | inactive: -3.12%
CN(C)CCS | inactive: -7.51%
CCOC(=O)c1ccc(NP(C)(=O)Oc2ccc(OC)cc2)cc1 (stereo not drawn) | inactive: -2.05%
O=[N+]([O-])c1cc([N+](=O)[O-])c(O)c([N+](=O)[O-])c1.c1ccc(Oc2ccncc2)cc1 | inactive: 3.68%
CCOP(C)(=S)SCC(=O)NC(C)C(=O)O (stereo not drawn) | inactive: 1.48%
CP(=O)(Nc1ccccn1)Oc1ccc(Cl)cc1 (stereo not drawn) | inactive: 4.11%
CCN(CC)CCCOC(=O)C(O)(c1ccccc1)c1ccccc1 | inactive: -4.17%
COc1ccccc1-c1ccccn1.O=[N+]([O-])c1cc([N+](=O)[O-])c(O)c([N+](=O)[O-])c1 | inactive: 3.09%
O=[N+]([O-])c1cc([N+](=O)[O-])c(Nc2cccnc2)c([N+](=O)[O-])c1 | inactive: -1.23%
O=[N+]([O-])c1ccc2c(c1)C=Nc1ccccc1O2 | inactive: -7.49%
Cc1cccc(C)c1OP(C)(N)=O (stereo not drawn) | inactive: 1.15%
CC(C)(C)c1ccc(OP(C)(=O)Nc2ccc(SC(F)(F)F)cc2)cc1 (stereo not drawn) | inactive: -7.2%
Cc1ccc(NP(C)(=O)Oc2ccccc2)c(C)c1 (stereo not drawn) | inactive: 1.59%
COc1ccccc1OP(C)(=O)Nc1ccc(C)cc1 (stereo not drawn) | inactive: 3.78%
CCOC(=O)c1ccc(NP(C)(=O)Oc2ccccc2)cc1 (stereo not drawn) | inactive: -5.76%
Cc1cc(C)cc(OP(C)(N)=O)c1 (stereo not drawn) | inactive: 5.4%

Structure (SMILES) | activity, negative = inhibition
COc1ccc(OP(C)(=O)Nc2cccc(F)c2)cc1 (stereo not drawn) | inactive: 7.64%
COc1ccccc1OP(C)(=O)Nc1cc(Cl)ccc1C (stereo not drawn) | inactive: -8.19%
CC1=NCCc2c1[nH]c1ccccc21.O=[N+]([O-])c1cc([N+](=O)[O-])c(O)c([N+](=O)[O-])c1 | inactive: -12.8%
COc1ccccc1OP(C)(=O)Nc1cccc(Br)c1 (stereo not drawn) | inactive: 7.41%
CCOC(=O)c1ccc(NP(C)(=O)Oc2cc(C)cc(C)c2)cc1 (stereo not drawn) | inactive: 7.12%
Cc1cc(C)cc(OP(C)(=O)Nc2ccc(C)cc2C)c1 (stereo not drawn) | inactive: 0.608%
Cc1ccc(C)c(NP(C)(=O)Oc2ccccc2)c1 (stereo not drawn) | inactive: -12.9%
Cc1cc(C)cc(OP(C)(=O)Nc2ccccn2)c1 (stereo not drawn) | inactive: 0%
CP(=O)(Nc1cccc(Br)c1)Oc1ccccc1 (stereo not drawn) | inactive: 0.631%
O=[N+]([O-])c1cc([N+](=O)[O-])c(-n2nnc3ccccc32)c([N+](=O)[O-])c1 | inactive: -6.21%
CC(C)N(CCCl)C(C)C | inactive: -4.38%
CN(Cc1cccnc1)C(=O)COc1ccc(Cl)c(Cl)c1.O=[N+]([O-])c1cc([N+](=O)[O-])c(O)c([N+](=O)[O-])c1 | inactive: 3.54%
O=[N+]([O-])c1cc([N+](=O)[O-])c(-c2cnn(-c3ccccc3)c2)c([N+](=O)[O-])c1 | inactive: 1.04%
CC1=C2N=C(C=C3N=C(C(C)=C4[N-][C@@](C)([C@@H]5N=C1[C@](C)(CCC(=O)NC[C@@H](C)OP(=O)([O-])O[C@H]1[C@@H](O)[C@@H](n6cnc7cc(C)c(C)cc76)O[C@@H]1CO)[C@H]5CC(N)=O)[C@@](C)(CC(N)=O)[C@@H]4CCC(N)=O)[C@@](C)(CC(N)=O)[C@@H]3CCC(N)=O)C(C)(C)[C@@H]2CCC(N)=O.[C-]#N.[Co+3] | inactive: -1.78%
O=[N+]([O-])c1cc([N+](=O)[O-])c(Nc2nnnn2CCO)c([N+](=O)[O-])c1 | inactive: -3.56%
COc1ccccc1OP(C)(=O)Nc1c(C)cccc1C (stereo not drawn) | inactive: -1.54%
CN1CCCCC1COC(=O)C1(O)c2ccccc2CCc2ccccc21 (stereo not drawn) | inactive: -6.13%
CCCOc1ccc(NP(C)(=O)Oc2ccc(Cl)cc2)cc1 (stereo not drawn) | inactive: -1.94%
CP(=O)(Nc1ccc(SC(F)(F)F)cc1)Oc1ccccc1 (stereo not drawn) | inactive: -4.1%
CN(C)CCOC(=O)C(O)(c1ccccc1)C1CCCCC1 (stereo not drawn) | inactive: -9.54%
O=[N+]([O-])c1ccc(OP2(=O)COCCO2)cc1 (stereo not drawn) | inactive: 6.22%
Cc1cc(-c2cccc3ccccc23)c(C)cn1.O=[N+]([O-])c1cc([N+](=O)[O-])c(O)c([N+](=O)[O-])c1 | inactive: -0.743%
Cc1c(C(c2ccc3c(c2)OCO3)c2c(C)n(C)n(-c3ccccc3)c2=O)c(=O)n(-c2ccccc2)n1C.O=[N+]([O-])c1cc([N+](=O)[O-])c(O)c([N+](=O)[O-])c1 | inactive: 35.9%
CP(=O)(Nc1ccc(SC(F)(F)F)cc1)Oc1ccc(F)cc1 (stereo not drawn) | inactive: -17.2%

Structure (SMILES) | activity, negative = inhibition
CCOP(C)(=S)SCC(=O)NC(C)(CC)C(=O)O (stereo not drawn) | inactive: -1.92%
CP(=O)(Nc1ccc2c(c1)OCCO2)Oc1ccccc1 (stereo not drawn) | inactive: 0.197%
Cc1ccccc1NP(C)(=O)Nc1ccccc1C | inactive: 1.96%
O=[N+]([O-])c1cc([N+](=O)[O-])c(C(F)(F)F)c([N+](=O)[O-])c1O | inactive: 1.31%
CP(=O)(Nc1ccccc1F)Oc1ccccc1 (stereo not drawn) | inactive: -11%
CC(C)c1ccc(OP(C)(=O)Nc2ccc(SC(F)(F)F)cc2)cc1 (stereo not drawn) | inactive: 2.83%
O=C(OCCN1CCN(CCOCc2ccccc2)CC1)C(O)(c1ccccc1)c1ccccc1 | inactive: -0.542%
CCOP(=O)(CC)Oc1ccc([N+](=O)[O-])cc1 (stereo not drawn) | inactive: 0%
Cc1cccc([N+](=O)[O-])c1[N+](=O)[O-] | inactive: -10.7% [at 157 µM]
CCOC(=O)c1ccc(NP(C)(=O)Oc2ccc(F)cc2)cc1 (stereo not drawn) | inactive: -10.1%
Cc1c([N+](=O)[O-])cc([N+](=O)[O-])c(Br)c1[N+](=O)[O-] | inactive: -0.214%
CCN(CC)CCCOC(=O)C(O)(c1ccccc1)C1CCCCC1 (stereo not drawn) | inactive: -7.26%
CP(=O)(Nc1ccccc1)Oc1ccc(F)cc1 (stereo not drawn) | inactive: -0.491%
CCCCCOc1ccc(NP(C)(=O)Oc2ccc(Cl)cc2Cl)cc1 (stereo not drawn) | inactive: -3.96%
Cc1cc(C)cc(OP(C)(=O)Nc2cccc(C(F)(F)F)c2)c1 (stereo not drawn) | inactive: 2.79%
COc1ccccc1OP(C)(=O)Nc1ccc(C)c(C)c1 (stereo not drawn) | inactive: 0.35%
COc1ccc(OP(C)(=O)Nc2ccccc2Br)cc1 (stereo not drawn) | inactive: 0.639%
CP(=O)(Nc1ccc(Cl)cc1Cl)Oc1ccccc1 (stereo not drawn) | inactive: -1.78%
CCCCCCCCCCCCCCCC1C[N+](C)(C)CCOP(C)(=O)O1 (stereo not drawn) | inactive: -5.38%
CP(=O)(OCCOc1ccccc1)OCCOc1ccccc1 | inactive: 5.49%
COc1ccccc1OP(C)(=O)Nc1ccc(Br)cc1 (stereo not drawn) | inactive: 4.53%
COc1ccc(OP(C)(=O)Nc2ccccn2)cc1 (stereo not drawn) | inactive: -2.44%
CN(C)CCOC(=O)C(O)(c1ccccc1)C1CCCC1 (stereo not drawn) | inactive: 1.99%
Cc1c(NP(C)(=O)Oc2ccc(C(C)C)cc2)c(=O)n(-c2ccccc2)n1C (stereo not drawn) | inactive: 9.49%

Structure (SMILES) | activity, negative = inhibition
O=[N+]([O-])c1cc([N+](=O)[O-])c(Nc2ccccn2)c([N+](=O)[O-])c1 | inactive: 1.7%
COc1ccccc1OP(C)(=O)Nc1ccc(C)cc1C (stereo not drawn) | inactive: -3.53%
CP(=O)(Nc1ccccn1)Oc1ccccc1 (stereo not drawn) | inactive: -2.07%
CCc1ccc(OP(C)(=O)O)cc1 | inactive: 2.18%
COc1ccc(OP(C)(=O)Nc2ccc(Br)cc2)cc1 (stereo not drawn) | inactive: 1.8%
CCN(CC)CC(O)COC(=O)C(O)(c1ccccc1)C1CCCCC1 (stereo not drawn) | inactive: 3.61%
N#[O+].[C-]#N.[C-]#N.[C-]#N.[C-]#N.[C-]#N.[Fe+2].[Na+].[Na+] | inactive: -1.64%
OCCSCCO | inactive: -7.9%
O=C(OCCCN1CCCC1)C(O)(c1ccccc1)C1CCCCC1 (stereo not drawn) | inactive: 1.82%
COc1ccccc1OP(C)(=O)Nc1c(C)n(C)n(-c2ccccc2)c1=O (stereo not drawn) | inactive: -0.779%
CCc1ccc(OP(C)(=O)Nc2cccnc2)cc1 (stereo not drawn) | inactive: -0.798%
CP(=O)(Oc1ccccc1)N1CCOC1=O (stereo not drawn) | inactive: -2.71%
COc1ccccc1OP(C)(=O)Nc1ccccc1Br (stereo not drawn) | inactive: 5.57%
CC(C)(C)c1ccc(OP(C)(=O)O)cc1 | inactive: 13.3%
CP(=O)(Nc1ccc(Cl)cc1)Oc1ccc(F)cc1 (stereo not drawn) | inactive: -10.7%
CN(C)C(=O)c1c([N+](=O)[O-])cc([N+](=O)[O-])cc1[N+](=O)[O-] | inactive: -20.1%
Nc1ccc2c(ccc3cccnc32)n1.O=[N+]([O-])c1cc([N+](=O)[O-])c(O)c([N+](=O)[O-])c1 | inactive: 1.33%
CCOC(=O)c1ccc(NP(C)(=O)Oc2ccc(Cl)cc2)cc1 (stereo not drawn) | inactive: -7.02%
CP(=O)(OC12CC3CC(CC(C3)C1)C2)OC12CC3CC(CC(C3)C1)C2 | inactive: -1.01%
CC(C)OP(=O)(F)OC(C)C | inactive: 2.4%
C/C1=C2N=C(/C=C3N=C(/C(C)=C4\[N-][C@@](C)([C@H]5N=C1[C@@](C)(CCC(=O)NC[C@H](C)OP(=O)([O-])O[C@@H]1[C@H](O)[C@H](n6cnc7cc(C)c(C)cc76)O[C@@H]1CO)[C@@H]5CC(N)=O)[C@](C)(CC(N)=O)[C@H]4CCC(N)=O)[C@@](C)(CC(N)=O)[C@@H]\3CCC(N)=O)C(C)(C)[C@@H]/2CCC(N)=O.[C-]#N.[Co+3] | inactive: -7.9% [at 33.2 µM]

Reference: PubChem BioAssay AID624173 (National Center for Advancing Translational Sciences (NCATS), 2012)
